Assay results as given in patent publication US20160060352A1, “COMPOSITIONS AND METHODS FOR DETECTION AND TREATMENT OF HEPA[…]” (VIVENTIA BIO INC., priority 2013, published 2016).
“Also recorded” adds a separate entry of the source.

Columns and labels:
[1] = Protein properties of VB4-845 (isoelectric point, water solubility); assay type: physicochemical
Experimental: The resulting protein retains the specificity of the parent 4D5MOCB for Ep-CAM. The expression vector for the protein, pING3302 (Plasmid pING3302 from Xoma Ireland Ltd was used for the construction of the expression vector) is carried and expressed by the E 104 E. coli host strain. The protein is 648 amino acids in length and has a predicted molecular weight of 69.7 kilodaltons (kDa).

[2] = Analytical gel filtration, thermal stability at 37° C. in PBS; assay type: physicochemical
Experimental: The shelf-life of the product when stored at −70° C. is at least six months. At physiological conditions (e.g., incubation of the drug product for four hours at 37° C. in PBS), the majority of the immunoconjugate molecules (at least 91%) are still eluted as monomers of the appropriate molecular weight (approximately 70 kDa).
Analytical gel filtration and determination of thermal stability. […] Samples were analyzed at different time points (after 0 h, 2 h, 4 h, 8 h, 10 h and 20 h) by gel filtration using the Smart system (Pharmacia, Uppsala) with a Superose-12 PC3.2/30 column. The column was calibrated in the same buffer with three protein standards: alcohol dehydrogenase (Mr 150,000), bovine serum albumin (Mr 66,000) and carbonic anhydrase (Mr 29,000). The same analytical setting was used to assess the thermal stability of the 99m Tc-labeled immunoconjugate after a 20 h incubation at 37° C. in human serum. The amount of immunoconjugate monomers was determined by g-scintillation counting of the eluted fractions.

[3] = Shelf-life and short term stability studies of the product; assay type: physicochemical
Experimental: The sample product is labeled, stored, and shipped according to written and approved standard operating procedures. The product may be shipped under frozen conditions (e.g., on dry ice), and may be maintained, for example, at the study site in a limited access, controlled −70° C. freezer that is monitored regularly for temperature. The product may be maintained at this condition until time of use.
Short term stability studies have been conducted to evaluate the inherent stability of the investigational product under routine handling at the clinical site.

[4] = Short term stability in biological fluid (human plasma, serum and urine); assay type: in vitro ADME; conditions: up to 16 hrs incubation
[5] = test system: Ep-CAM-positive SW2 and Ep-CAM-negative COLO320 xenografts; experiment: Biodistribution of radiolabeled VB4-845 in xenograft-bearing mice; assay type: in vivo
[6] = test system: Ep-CAM^high cell lines (HuH-7, HepG2, Hep3B and HuH-1); experiment: Sphere formation assay; assay type: cell-based, human; conditions: 48 h treatment (VB4-845 1-10 pM, 5-FU 1-5 μg/ml), 7 days of culture
Experimental: Briefly, 1×10^6 cells of HuH-7, HepG2, Hep3B and HuH-1 were seeded in four 10 cm dishes. […] After 48h, the medium was changed to drug-free medium and incubated for 24 h. After cell viability was confirmed by trypan blue exclusion, the remaining viable cells were collected and plated separately at 1×10^2 cells in low attachment plates (96-well Ultra Low Cluster Plate; Costar, Corning, N.Y.), and incubated in serum-free Dulbecco's modified Eagle medium/F12 medium (Invitrogen). Sphere formation was observed using AxioObserver (Carl Zeiss, Oberkochen, Germany), and the images were acquired digitally using AxioVision software (Carl Zeiss).

CD133 = experiment: FACS analysis of stem/progenitor marker CD133 after treatment; assay type: cell-based, human; conditions: HuH-7, HepG2, and Hep3B cells, compared with the control
Text: (§1) For flow cytometry, FACSCanto™ II (BD Biosciences, San Jose, Calif.) was used. Cancer cells were washed with phosphate-buffered saline, and then enzymatically dissociated with 0.05% trypsin-EDTA (Invitrogen). The trypsinized cells were suspended in FACS buffer, and analyzed on FACSCanto™ II using FACSDiva software (BD Biosciences). For the analysis of hepatic stem/progenitor markers, primary antibodies against Ep-CAM (#324206; Biolegend, San Diego, Calif.), CD13 (#555394; BD Pharmingen), CD44 (#555479; BD Pharmingen), CD90 (#328110; BioLegend), CD133 (#130-080-801; Miltenyi Biotec, Gladbach, Germany), Mouse IgG1 κtype (#555749; BioLegend), and Mouse IgG2b κtype (#400314; BioLegend) were used. All antibodies were conjugated directly with phycoerythrin (PE). The immunostaining and analysis were performed according to the instructions from the manufacturer.
(§2) These markers were chosen because they were reported as biomarkers of HCC with poor prognosis. […] There was no consistent tendency for the positive rate of CD44 and CD90 after the treatment of each cell line.

CD13 = experiment: FACS analysis of stem/progenitor marker CD13 after treatment; assay type: cell-based, human; conditions: HuH-7 and Hep3B cells
Text: as §1, §2

[7] = test system: HuH-7 subcutaneous xenografts; experiment: Subcutaneous xenograft model; assay type: in vivo, NOD.CB17-PRkdcScid/J mice; conditions: three weeks after initiation; VB4-845 30 μg/kg i.v., 5-FU 30 mg/kg i.p., three times a week for 2 weeks
Experimental: Twenty five-week-old female NOD.CB17-PRkdcScid/J mice purchased from Charles River Laboratory Inc. (Kanagawa, Japan) were injected with 1×10^6 HuH-7 cells mixed with the same amount of Matrigel (BD Biosciences) subcutaneously into the both flanks of mice under anesthesia. […] Tumor size was measured using calipers three times a week and tumor volumes calculated using the following equation: volume=(length)×(width)2×0.5. The mice were sacrificed three weeks after the initiation of treatment.

[8] = test system: MCF-7 breast cancer cells; experiment: Mammosphere re-plating assay with Trypan Blue exclusion; assay type: cell-based

VB4-845
isoelectric point (pI) [1]: approximately 5.9 | water solubility [1]: water-soluble forming a clear solution | initial protein present in monomeric form ([2]; after twenty hours at 37° C.): ≥ 47% | immunoconjugate molecules still eluted as monomers ([2]; four hours at 37° C. in PBS): at least 91% | stable in original packaging ([3]; refrigerated, 2-8° C.): at least 24 hours | stable in original packaging ([3]; room temperature): at least 20 hours | biological activity over short-term stability studies ([3]; room temperature, 2-8° C., injection buffer with and without 800 mM urea up to six hours, repeated freeze-thaw): retain its biological activity | shelf-life ([3]; stored at −70° C.): at least six | retains binding property and cell toxicity [4]: at least 16 hrs | dose detected in SW2 tumors ([5]; 24 hours): 1.95 % ID/g | dose detected in SW2 tumors ([5]; 48 hours): 1.13 % ID/g | total dose in the blood ([5]; after 24 hours): 0.42 % ID/g | dose in COLO320 control tumors ([5]; after 48 hours): only background levels | dose in COLO320 control tumors ([5]; after four hours): 1.06 % ID/g | dose detected in SW2 tumors ([5]; after four hours (maximum)): 2.93 % ID/g | dose in COLO320 control tumors ([5]; after thirty minutes (maximum)): 1.65 % ID/g | blood clearance ([5]; compared with parental scFv): slower blood clearance than the parental scFv | localization in normal tissues ([5]; mouse, in vivo): localized in the kidney, spleen, liver and to a lower extent in the bone | sphere formation by surviving cells [6]: did not form such spheres | positive rate of CD133 (CD133): significantly decreased | positive rate of CD13 (CD13): significantly decreased | volume of tumors [7]: 476±134 mm^3 | cytotoxicity by Trypan Blue ([8]; Day 10 post re-plating): cytotoxic, but not cytostatic; also recorded: Cytotoxicity was confirmed | sphere formation after re-plating ([8]; test items removed from the culture media, 7 days): no spheres were formed; also recorded: failed to produce any spheres
